Laboratory results taken from patent publication US20240317834A1, “COMPOSITIONS AND METHODS FOR NEUROLOGICAL DISEASES” (CODA BIOTHERAPEUTICS, published 2024).

Columns and labels:
[1] = target: T1, CODA952 (Y140I in SEQ ID NO: 33) (human (chimera of human α7-nAChR and …))
T1 chain: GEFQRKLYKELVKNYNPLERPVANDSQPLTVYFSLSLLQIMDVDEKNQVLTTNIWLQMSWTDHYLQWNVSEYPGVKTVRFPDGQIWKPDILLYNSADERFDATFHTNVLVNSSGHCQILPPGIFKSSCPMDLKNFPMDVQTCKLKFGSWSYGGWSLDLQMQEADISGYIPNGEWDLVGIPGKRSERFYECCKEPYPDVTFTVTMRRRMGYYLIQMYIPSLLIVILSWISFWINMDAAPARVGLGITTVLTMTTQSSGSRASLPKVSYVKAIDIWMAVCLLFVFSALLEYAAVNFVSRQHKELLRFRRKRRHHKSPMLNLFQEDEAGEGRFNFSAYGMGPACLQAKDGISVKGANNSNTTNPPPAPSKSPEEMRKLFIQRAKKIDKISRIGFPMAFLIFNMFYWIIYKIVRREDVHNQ

[2] = target: T2, CODA335 (L131T in SEQ ID NO: 33) (human (chimera of human α7-nAChR and …))
T2 chain: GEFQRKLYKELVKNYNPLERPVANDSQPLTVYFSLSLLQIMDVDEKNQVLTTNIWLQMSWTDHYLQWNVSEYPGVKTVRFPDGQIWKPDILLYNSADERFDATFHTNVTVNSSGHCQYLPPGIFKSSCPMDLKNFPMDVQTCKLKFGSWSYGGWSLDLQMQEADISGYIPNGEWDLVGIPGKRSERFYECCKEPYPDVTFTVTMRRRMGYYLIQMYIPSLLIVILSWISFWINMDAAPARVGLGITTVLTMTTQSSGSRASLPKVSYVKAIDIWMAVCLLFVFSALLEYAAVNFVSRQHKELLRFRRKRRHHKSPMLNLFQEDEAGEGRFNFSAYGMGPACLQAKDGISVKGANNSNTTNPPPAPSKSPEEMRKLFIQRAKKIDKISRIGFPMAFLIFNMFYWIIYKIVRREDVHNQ

[3] = target: T3, CODA377 (S172D in SEQ ID NO: 33) (human (chimera of human α7-nAChR and …))
T3 chain: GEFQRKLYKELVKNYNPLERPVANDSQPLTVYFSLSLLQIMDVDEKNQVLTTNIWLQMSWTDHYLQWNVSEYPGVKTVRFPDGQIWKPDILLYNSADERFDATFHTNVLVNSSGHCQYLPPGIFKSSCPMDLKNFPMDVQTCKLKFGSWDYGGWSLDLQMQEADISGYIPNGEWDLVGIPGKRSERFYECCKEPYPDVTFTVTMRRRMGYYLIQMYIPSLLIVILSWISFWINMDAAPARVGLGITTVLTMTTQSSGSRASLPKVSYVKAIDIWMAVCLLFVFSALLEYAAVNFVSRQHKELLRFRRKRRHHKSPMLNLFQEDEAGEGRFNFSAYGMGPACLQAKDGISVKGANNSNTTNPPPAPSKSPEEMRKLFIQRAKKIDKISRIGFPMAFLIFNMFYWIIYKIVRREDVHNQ

B1: α-bungarotoxin conjugated to Alexa Fluor 647 (ligand)
chain: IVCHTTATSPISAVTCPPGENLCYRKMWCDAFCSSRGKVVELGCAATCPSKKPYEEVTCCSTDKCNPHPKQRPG
B1 was tested, and the “Normalized AB %” value [1] was 0.54 ratio to SEQ ID NO: 33 control, the “Normalized AB MFI” value [1] was 2.64 ratio to SEQ ID NO: 33 control and the “Normalized AB %” value [2] was 1.65 ratio to SEQ ID NO: 33 control. For the same binder, the “Normalized AB %” value [3] was 0.5 ratio to SEQ ID NO: 33 control and the “Normalized AB MFI” value [3] was 0.9 ratio to SEQ ID NO: 33 control.
